The text below walks through data of patent US8852587B2 (priority 2008, dated 2014).

The subject of the data set is PrP.

B1: mAB W226 (antibody, V domains shown)
VH: EVQLQQSGAELARPGTSVNLSCKTSGYSFTGYGVSWVKQRIGQGLEWIGEIYPRSGNTYYNEKFKGKATLTADKSSNTAYMELRSLTSEDSAVYFCARWNWERDAMDYWGQGTSVTVSSAKTTPPSDYPLA
VL: DIVMTQTPLSLPVSLGDQASISCRSSQSLESSSGYPHLNWYLQKPGQSPQLLIYRVSNRFSGVLDRFSGSGSGTDFTLQISRVEAEDLGVYFCLQITHVPWTFGGGTKLEIKRADAAPTVSAA
As to B1, the epitope entry is recorded as “WEDRYYREN”.

B2: scFvW226: scFv: variable heavy and light chain domains of W226 connected by (Gly4Ser)3-linker, C-terminal myc- and his6-tags; SEQ ID NO:6 (protein)
scFv: MKYLLPTAAAGLLLLAAQPAMAMAEVQLQQSGAELARPGTSVNLSCKTSGYSFTGYGVSWVKQRIGQGLEWIGEIYPRSGNTYYNEKFKGKATLTADKSSNTAYMELRSLTSEDSAVYFCARWNWERDAMDYWGQGTSVTVSSAKTTPPSDYPLAGGGGSGGGGSGGGGSDIVMTQTPLSLPVSLGDQASISCRSSQSLESSSGYPHLNWYLQKPGQSPQLLIYRVSNRFSGVLDRFSGSGSGTDFTLQISRVEAEDLGVYFCLQITHVPWTFGGGTKLEIKRADAAPTVSAAEEQKLISEEDLEHHHHHH
modifications: C-terminal myc and His6 tags; scFv
For the molecule B2, the epitope result is on record as “WEDRYYREN”.
